Pooled drug test results. Numbers come from NIAID ChemDB, via PubChem.

Shared fields: whole-cell or culture tests; species: Punta Toro virus

ECn: concentration that inhibits the pathogen or its effect by n%. Conditions beyond the fields shown may differ between rows. Blank or dashed fields: not listed here.

compound | strain or isolate | endpoint | cells | method | value
Cc1nc(CC(=O)NN)nn1C |  | MIC |  |  | >80 µg/mL
CC1(C)[C@@H](CO)CC[C@@]1(C)Cn1nnc2c(=O)[nH]cnc21 |  | EC50 | VERO | cytopathic effect | >400 µg/mL
CCc1nc(-n2c(C)nc3ccc(Br)cc3c2=O)nc(N)c1-c1ccc(Cl)cc1 |  | EC50 | E6SM | cytopathic effect | >80 µg/mL
COC(=O)[C@]1(C)CCC[C@]2(C)c3cc4cc[nH]c4cc3CCC12 |  | EC50 | VERO | plaque count | >4 µg/mL
CCn1nc(Cc2n[nH]c(=S)o2)nc1C |  | MIC |  |  | >400 µg/mL
[N-]=[N+]=NC(CBr)c1cc([C@H]2C[C@H](O)[C@@H](CO)O2)c(F)cc1F |  | EC50 | VERO | cytopathic effect | >16 µg/mL
CC1(C)[C@@H](CO)CC[C@@]1(C)Cn1cnc2c(Cl)ncnc21 |  | EC50 | VERO | cytopathic effect | >400 µg/mL
NC1=Nn2c(nnc2-c2cn(-c3ccccc3)nc2-c2ccccc2)SC1 |  | EC50 | VERO | cytopathic effect | >16 µg/mL
Nc1ccn([C@@H]2OC[C@H](CO)[C@H]2O)c(=O)n1 |  | EC50 | VERO | cytopathic effect | >80 µg/mL
CN=C(N)c1ncn([C@@H]2O[C@H](CO)[C@@H](O)[C@H]2O)n1 | Adames | EC50 | VERO | cytopathic effect | 250 µg/mL
OC[C@H]1O[C@@H](c2cc(Cl)c(F)cc2F)C[C@@H]1O |  | EC50 | VERO | cytopathic effect | >80 µg/mL
Nc1ncnc2c1ncn2[C@H]1OC[C@@H](CO)C1O |  | EC50 | VERO | cytopathic effect | >80 µg/mL
O=C1CSc2nnc(-c3cn(-c4ccccc4)nc3-c3ccccc3)n2N1 |  | EC50 | VERO | cytopathic effect | >16 µg/mL
Nc1ncnc2c1cnn2Cc1cn(CCCCO)nn1 |  | EC50 | VERO |  | >400 µg/mL
CCCCN=C(N)c1ncn([C@@H]2O[C@H](CO)[C@@H](O)[C@H]2O)n1 | Adames | EC50 | VERO | cytopathic effect | 41 µg/mL
CC(=O)N[C@H]1C[C@@H](n2cnc3c(N)ncnc32)[C@H](O)[C@@H]1O |  | EC50 | HFF |  | >100 µg/mL
CC1=Nn2c(nnc2-c2cn(-c3ccccc3)nc2-c2ccccc2)SC1 |  | EC50 | VERO | cytopathic effect | >16 µg/mL
N=C(N)c1ncn([C@@H]2O[C@H](CO)[C@@H](O)[C@H]2O)n1 | Balliet | EC50 | LLC-MK2 |  | 12 µg/mL
NC(=O)CSc1ncnc2c1cnn2CCCCO |  | EC50 | VERO | cytopathic effect | >400 µg/mL
Cc1cn([C@@H]2OC[C@H](CO)[C@H]2N=[N+]=[N-])c(=O)[nH]c1=O |  | EC50 | VERO | cytopathic effect | >80 µg/mL
Nn1c(-c2cn(-c3ccccc3)nc2-c2ccccc2)n[nH]c1=S |  | EC50 | VERO | cytopathic effect | >16 µg/mL
COC(=O)[C@]1(C)CCC[C@]2(C)c3ccc4[nH]c(C)nc4c3CCC12 |  | EC50 | VERO | plaque count | >4 µg/mL
CC1(C)[C@@H](CCO)C[C@H]1n1cnc2c(=O)[nH]c(N)nc21 |  | EC50 | VERO | cytopathic effect | >400 µg/mL
CCOC(=O)C1=CSc2nnc(-c3cn(-c4ccccc4)nc3-c3ccccc3)n2N=C1N |  | EC50 | VERO | cytopathic effect | >16 µg/mL
CC(C)CS[C@@H]1C[C@H](n2cnc3c(N)ncnc32)[C@@H](O)[C@H]1O |  | EC50 | HeLa | cytopathic effect | >80 µg/mL
COc1cc(Cc2cnc(-n3c(C)nc4ccc(Br)cc4c3=O)nc2N)cc(OC)c1OC |  | EC50 | E6SM | cytopathic effect | >80 µg/mL
CCC(Sc1ncnc2c1cnn2COCCO)C(N)=O |  | EC50 | VERO | cytopathic effect | >400 µg/mL
NNC(=O)Cc1nc2n(n1)CCCCC2 |  | MIC |  |  | >16 µg/mL
COC(=O)[C@]1(C)CCC[C@]2(C)c3cc(Br)c4nc(C(F)(F)F)[nH]c4c3CCC12 |  | EC50 | VERO | plaque count | >4 µg/mL
NC1=CC(c2ccccc2)=Nn2c(nnc2-c2cn(-c3ccccc3)nc2-c2ccccc2)S1 |  | EC50 | VERO | cytopathic effect | >16 µg/mL
CC1(C)[C@@H](CCO)C[C@H]1n1nnc2c(=O)[nH]cnc21 |  | EC50 | VERO | cytopathic effect | >100 µg/mL
O=c1[nH]n2c(-c3cn(-c4ccccc4)nc3-c3ccccc3)nnc2s1 |  | EC50 | VERO | cytopathic effect | >80 µg/mL
CCn1nc(CC(=O)N/N=C/c2ccco2)nc1C |  | MIC |  |  | >80 µg/mL
CCC(Sc1ncnc2c1cnn2COCC(O)CO)C(N)=O |  | EC50 | VERO | cytopathic effect | >400 µg/mL
CSc1ncnc2c1cnn2Cc1cn(CCCCO)nn1 |  | EC50 | VERO |  | >400 µg/mL
CC1(C)[C@@H](CCO)C[C@H]1n1cnc2c(N)ncnc21 |  | EC50 | VERO | cytopathic effect | >400 µg/mL
OCCCCn1nncc1Cn1ncc2c(SCc3ccccc3)ncnc21 |  | EC50 | VERO |  | >400 µg/mL
Cc1nc2ccc(Br)cc2c(=O)n1-c1nnc(-c2cccc(Cl)c2Cl)c(N)n1 |  | EC50 | E6SM | cytopathic effect | >16 µg/mL
COC(=O)[C@]1(C)CCC[C@]2(C)c3cc(Br)c4[nH]ccc4c3CCC12 |  | EC50 | VERO | plaque count | >4 µg/mL
S=c1[nH]nc(Cc2nc3n(n2)CCCCC3)o1 |  | MIC |  |  | >80 µg/mL
CC1(C)[C@@H](CO)CC[C@@]1(C)Cn1nnc2c(Cl)ncnc21 |  | EC50 | VERO | cytopathic effect | >400 µg/mL

For reference, 5 entries again:

compound | strain or isolate | endpoint | cells | method | value
COC(=O)[C@]1(C)CCC[C@]2(C)c3cc(Br)c4[nH]ccc4c3CCC12 |  | EC50 | VERO | plaque count | >4 µg/mL
Cc1cn([C@@H]2OC[C@H](CO)[C@H]2N=[N+]=[N-])c(=O)[nH]c1=O |  | EC50 | VERO | cytopathic effect | >80 µg/mL
CCn1nc(CC(=O)N/N=C/c2ccco2)nc1C |  | MIC |  |  | >80 µg/mL
CCn1nc(Cc2n[nH]c(=S)o2)nc1C |  | MIC |  |  | >400 µg/mL
CCC(Sc1ncnc2c1cnn2COCC(O)CO)C(N)=O |  | EC50 | VERO | cytopathic effect | >400 µg/mL